# PubChem BioAssay AID504761 – Drosophila RNAi Screening Center – 2011
# Purpose: 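Fly genes whose silencing reduces dengue virus type 2 infection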 (primary screen)
# Cell system: D.Mel-2 cells from Drosophila
# Reagents: long dsRNA against Drosophila genes
# Challenge: infection with dengue virus type 2; dose and infection time not stated
# Detection: 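Per well on two replicate plates, imaging gave the percent of cells positive for viral envelope protein, ranked by infection, and a nuclear count of cells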
# Scale: infection score: higher = more virus-infected cells; cell count: higher = more cells in the well
# Rule for the call: 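Very low infection ranking in both replicate wells (chance probability at most 0.065), then a retest showing infection dropped 1.5-fold or more at p below 0.05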
# Meaning of the calls: active = confirmed: knock-down lowers infection; inactive = not picked or not confirmed
# In all, the deposit lists about 22,000 reagents; shown is an unselected part of those that have a named target and a result. Of all reagents, 116 (0.52%) are marked active. 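Calls depend on retest data that are not deposited; infection was ranked per plate without normalising between plates; the unit of the infection score is not given.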 The raw values are shown without normalisation. Names joined by + are all predicted targets of the reagent. Not given: the amount of reagent, the time to read-out.
target gene,dsRNA,"infection score, replicate 1","infection score, replicate 2","cell count, replicate 1","cell count, replicate 2",call
CG6420,DRSC16035,,,346,363,inactive
CG15553,DRSC15091,1.88,4.08,6761,759,inactive
pon,DRSC18823,,0.81,365,494,inactive
exu,DRSC07615,14.3,7.62,5035,1076,inactive
lace,DRSC03564,26.9,11.5,5701,5685,inactive
CG11882,DRSC14425,5.4,2.9,6353,6967,inactive
CG11882,DRSC27909,21.8,2.64,5129,7351,inactive
mid,DRSC02977,3.77,6.62,6026,6313,inactive
mid,DRSC21493,0.39,15.4,5934,4878,inactive
mid,DRSC25557,4.18,4.46,5810,6071,inactive
Nrt,DRSC11237,2.82,10.6,6985,6185,inactive
LysS,DRSC08677,4.27,0.62,5755,6331,inactive
LysS,DRSC27168,29.9,,5959,,inactive
hydra,DRSC20497,8.61,1.63,6003,5823,inactive
CG5087,DRSC10479,5.95,6.7,5609,6089,inactive
CG14315,DRSC14794,2.67,1.95,7032,6906,inactive
laza,DRSC11661,5.95,4.09,6422,6872,inactive
laza,DRSC23330,1.65,3.51,6672,6516,inactive
laza,DRSC29129,1.38,,506,244,inactive
Phb2,DRSC06512,17.9,13,5648,5407,inactive
CG18265,DRSC10310,6.2,7.85,5480,6066,inactive
Ekar,DRSC17161,1.42,0.93,6250,6017,inactive
Ekar,DRSC24931,14.1,13.6,5515,6107,inactive
CG9932,DRSC03275,7.13,11.1,5158,5851,inactive
ymp,DRSC13720,8.84,4.55,6315,5494,inactive
ymp,DRSC14482,6.53,4.04,6049,817,inactive
CG1737,DRSC19771,1.99,3.09,6093,6465,inactive
CG1737,DRSC25132,1.69,14.2,5913,5883,inactive
CG33332,DRSC15504,8.25,15.6,5865,4032,inactive
CG33332,DRSC27661,,2.06,499,921,inactive
HERC2,DRSC20566,4.97,1.64,5937,5853,inactive
CG4293,DRSC18557,11.8,5.68,6785,7273,inactive
Cyp28a5,DRSC03297,27.3,4.84,5404,5935,inactive
Pus10,DRSC00629,17.6,28,5176,4744,inactive

The list goes on; the last 4 above are carried over.
target gene,dsRNA,"infection score, replicate 1","infection score, replicate 2","cell count, replicate 1","cell count, replicate 2",call
HERC2,DRSC20566,4.97,1.64,5937,5853,inactive
CG4293,DRSC18557,11.8,5.68,6785,7273,inactive
Cyp28a5,DRSC03297,27.3,4.84,5404,5935,inactive
Pus10,DRSC00629,17.6,28,5176,4744,inactive
Ir31a,DRSC22358,3.85,4.65,6435,6477,inactive
TfIIEbeta,DRSC08701,4.05,2.4,6253,6214,inactive
dnk,DRSC16933,8.2,0.96,4303,5325,inactive
dnk,DRSC29240,9.94,10.3,2193,4925,inactive
und,DRSC03629,14.5,5,5823,5276,inactive
CG8236,DRSC16399,2.62,7.71,6072,6395,inactive
CG8236,DRSC26321,3.6,1.35,6355,6142,inactive
Cyp6a16Psi (retired record),DRSC03307,3.25,7.88,6379,6393,inactive
Sgs8,DRSC11282,1.67,2.4,5819,6032,inactive
CG5773,DRSC06955,7.24,30.4,6876,4037,inactive
CG5773,DRSC28940,,,379,303,inactive
CG8924,DRSC23027,2.84,5.32,6122,6340,inactive
ppk21,DRSC14466,0.27,10.2,370,3022,inactive
kl-5 (retired record),DRSC20707,5.95,2.32,5746,6390,inactive
kl-5 (retired record),DRSC20736,3.94,2.6,6794,6050,inactive
kl-5 (retired record),DRSC20773,2.27,6.36,6342,6083,inactive
kl-5 (retired record),DRSC21161,13,8.52,6277,5365,inactive
CG15480,DRSC02490,24.1,10.4,5249,4545,inactive
CG15480,DRSC24919,8.41,10.3,5767,5796,inactive
CG32756,DRSC23271,1.92,11.3,6088,6179,inactive
CG32756,DRSC25978,1.61,6.65,6969,6433,inactive
CG13725,DRSC10054,6.18,4.86,6428,6293,inactive
CG17343,DRSC02606,1.43,22.7,6657,4018,inactive
CG17343,DRSC22807,1.29,16.9,6366,3162,inactive
CG17343,DRSC28706,13.3,13.7,4655,4136,inactive
CG12608,DRSC19472,3.14,2.33,6183,6439,inactive
CG2211,DRSC08559,2.14,1.06,6075,6321,inactive
Sardh,DRSC06981,15.7,7.51,6150,5709,inactive
CG31076,DRSC16017,3.9,5.91,5745,6261,inactive
EndoA,DRSC14775,1.34,1.85,6341,6318,inactive
EndoA,DRSC29646,21.7,12.8,5031,2612,inactive
ssh,DRSC16730,7.43,6.22,5933,6290,inactive
ssh,DRSC28782,16.9,9.78,4997,3232,inactive
CG6470,DRSC19994,1.7,1.45,6997,6622,inactive
CG6470,DRSC27690,3.06,29.9,6239,4923,inactive
Paip1,DRSC07302,8.12,13.2,5790,5693,inactive
Paip1,DRSC23561,7.04,7.75,5951,5199,inactive
Dim1,DRSC00563,3.86,5.04,5702,5876,inactive
CG33722 + CG18749,DRSC12674,1.91,7.14,5747,5673,inactive
CG33722 + CG18749,DRSC15386,3.35,6.46,6606,6719,inactive
CG33722 + CG18749,DRSC28983,8.86,17.8,5529,5836,inactive
